Results of unrelated studies side by side (data: NIAID ChemDB).

Common to all: host cell toxicity; cell line: CEM; read-out: CC50

CCn: concentration that lowers growth or viability of the cells by n%. Rows are shuffled and stem from different studies. Two numbers with a dash give a range or band.

Cc1ccc(C)c(CS(=O)c2ccc(Cl)c[n+]2[O-])c1 ; value: 31 µg/mL
COc1cc(/C=N/NC(=O)Cn2nc(-c3ccccc3)c3c2-c2ccccc2S(=O)(=O)N3C)cc(OC)c1OC ; value: 75.4 µM
O=C(CN1c2c(-c3ccccc3)n[nH]c2-c2ccccc2S1(=O)=O)N/N=C/c1ccc(Cl)cc1Cl ; value: 10.9 µM
Nc1nc2c(ccn2C2CC(CO)(CO)C2)c(=O)[nH]1 ; value: >30 µg/mL
CCOCn1c(Cc2ccccc2)c(CC)c(=O)[nH]c1=O ; value: ≥100 µM
O=C(c1cccc(I)c1)c1ccc2[nH]c(=O)sc2c1 ; value: >8 µg/mL
C=C(C)[C@@H]1CC[C@]2(C(=O)NCCCC(=O)NCCCCCC(=O)O)CC[C@]3(C)[C@H](CC[C@@H]4[C@@]5(C)CC[C@H](O)C(C)(C)[C@@H]5CC[C@]43C)[C@@H]12 ; value: >3 µM
O=C(CN1c2c(-c3ccccc3)n[nH]c2-c2ccccc2S1(=O)=O)N/N=C/c1cccc([N+](=O)[O-])c1 ; value: 15.2 µM
C=C(C)[C@@H]1CC[C@]2(C(=O)NCCCCCCCC(=O)N[C@H](CCC(=O)O)CC(C)C)CC[C@]3(C)[C@H](CC[C@@H]4[C@@]5(C)CC[C@H](O)C(C)(C)[C@@H]5CC[C@]43C)[C@@H]12 ; value: >3 µM
Nc1ccc(C(=O)c2ccc3[nH]c(=O)oc3c2)cc1 ; value: 108 µg/mL
Nc1nc2c(ncn2[C@@H]2O[C@H](CO)C[C@@H]2F)c(=O)[nH]1 ; value: >53 µM
O=C1CSC(c2c(F)cccc2Cl)N1Cc1cccs1 ; value: 42.09 µM
Cc1ccc(C)c(CS(=O)(=O)c2cccc[n+]2[O-])c1 ; value: 31 µg/mL
Cc1c(Cc2ccc3ccccc3c2)n(COCCO)c(=O)[nH]c1=O ; value: 99.37 µM
Nc1nc(NC2CC2)c2ncn(C=C3CC3CO)c2n1 ; value: >184 µM
NC1=NS(=O)(=O)N(Cc2ccccc2)c2nc(Cc3ccccc3)[nH]c21 ; value: 9.6 µg/mL
NC(=O)c1cccc(SSc2cccc(C(N)=O)c2)c1 ; value: 101 µM
CCCc1c(Cc2cccc3ccccc23)n(COCC)c(=O)[nH]c1=O ; value: 33.79 µM
CCN(CC)c1ccc(/C=N/NC(=O)Cn2nc(-c3ccccc3)c3c2-c2ccccc2S(=O)(=O)N3C)cc1 ; value: >100 µM
C=C(C)[C@@H]1CC[C@]2(C(=O)NCCCCCCCC(=O)Nc3ccccc3C(=O)O)CC[C@]3(C)[C@H](CC[C@@H]4[C@@]5(C)CC[C@H](O)C(C)(C)[C@@H]5CC[C@]43C)[C@@H]12 ; value: >3 µM
CCOCn1c(Sc2cc(C)cc(C)c2)c(CC)c(=O)[nH]c1=S ; value: >100 µM
Cc1ccc(C(=O)Nc2ccc(S(=O)(=O)O)c3cc(S(=O)(=O)O)cc(S(=O)(=O)O)c23)cc1NC(=O)c1cccc(NC(=O)Nc2cccc(C(=O)Nc3cc(C(=O)Nc4ccc(S(=O)(=O)O)c5cc(S(=O)(=O)O)cc(S(=O)(=O)O)c45)ccc3C)c2)c1 ; value: 115 µM
Nc1ccn([C@@H]2CC[C@@H](CO)O2)c(=O)n1 ; value: 0.1 µM
N#C/C(=C\c1ccc(O)c(O)c1)C(=O)NCCN1CCN(C(=O)/C(C#N)=C/c2ccc(O)c(O)c2)CC1 ; value: 23.1 µM
CC(C)c1c(Sc2ccccc2)n(COCCO)c(=O)[nH]c1=O ; value: >100 µM
Nc1ncnc2c1ncn2[C@H]1O[C@H](CO)[C@@H](F)[C@@H]1F ; value: >100 µM
CN1c2c(-c3ccccc3)nn(CC(=O)N/N=C/c3ccc(O)cc3O)c2-c2ccccc2S1(=O)=O ; value: <1 µM
C=C(C)[C@@H]1CC[C@]2(C(=O)NCCC(=O)O)CC[C@]3(C)[C@H](CC[C@@H]4[C@@]5(C)CC[C@H](O)C(C)(C)[C@@H]5CC[C@]43C)[C@@H]12 ; value: >3 µM
Cc1cc(S(=O)(=O)Nc2nnc3ccccn23)c(S)cc1Cl ; value: >200 µM
CCOC(=O)CNC(=O)c1ccccc1SSc1ccccc1C(=O)NCC(=O)OCC ; value: 25 µM
NC1=NS(=O)(=O)N(Cc2ccccc2)c2nc(-c3ccc(Cl)cc3)[nH]c21 ; value: 9.9 µg/mL
O=C(O)/C=C/c1ccc(O)c(O)c1 ; value: >3 µg/mL
CCc1c(Cc2cccc3ccccc23)n(COCc2ccccc2)c(=O)[nH]c1=O ; value: 20.4 µM
Cn1cccc1CN1C(=O)CSC1c1c(F)cccc1F ; value: 161 µM
N#C/C(=C\c1ccc(O)c(O)c1)C(=O)NCCCNC(=O)/C(C#N)=C/c1ccc(O)c(O)c1 ; value: 40.9 µM
CN1c2c(-c3ccccc3)nn(CC(=O)N/N=C/c3ccccc3[N+](=O)[O-])c2-c2ccccc2S1(=O)=O ; value: 88.9 µM
O=C(Nc1nccs1)c1ccccc1SSc1ccccc1C(=O)Nc1nccs1 ; value: 18 µM
COCCCCCCCCCCCC(=O)O ; value: 80–190 µM
Cn1c(=O)sc2cc(C(=O)c3cccc([N+](=O)[O-])c3)ccc21 ; value: >40 µg/mL
Nc1ccn(C2CC(CO)(CO)C2)c(=O)n1 ; value: 10 µg/mL
Oc1ccc(O)cc1 ; value: <3 µg/mL
Cc1ccc(C(C)S(=O)(=O)c2c(C)ccc[n+]2[O-])c(C)c1 ; value: >100 µg/mL
C[C@H](NC(=O)c1ccccc1SSc1ccccc1C(=O)N[C@@H](C)C(=O)O)C(=O)O ; value: >200 µM
COC(=O)[C@H](C)NP(=O)(OC[C@H]1C/C1=C/n1cnc2c(OC)nc(N)nc21)Oc1ccccc1 ; value: 4.6 µM
O=c1ccn([C@@H]2C=C(F)[C@H](CO)O2)c(=O)[nH]1 ; value: >100 µM
C=CC[C@H](NC(=O)[C@H](Cc1ccccc1)NS(=O)(=O)N1CCOCC1)C(=O)N[C@@H](CC1CCCCC1)[C@@H](O)C[C@H](C(=O)NCCCC)C(C)C ; value: >13 µM
O=C(Nc1ccc(S(=O)(=O)Nc2ncccn2)cc1)c1ccccc1SSc1ccccc1C(=O)Nc1ccc(S(=O)(=O)Nc2ncccn2)cc1 ; value: 30 µM
O=C(c1cccc(F)c1)c1ccc2c(c1)oc(=O)n2CCN1CCOCC1 ; value: 20 µg/mL
COc1ccc(/C=N/NC(=O)Cn2nc(-c3ccccc3)c3c2-c2ccccc2S(=O)(=O)N3C)c(OC)c1 ; value: >100 µM
CCOCn1c(Cc2ccc3ccccc3c2)c(CC)c(=O)[nH]c1=O ; value: 69.5 µM
CN1c2c(-c3ccccc3)nn(CC(=O)N/N=C/c3cccc([N+](=O)[O-])c3)c2-c2ccccc2S1(=O)=O ; value: 99.6 µM
N#C/C(=C\c1ccc(O)c(O)c1)C(=O)OCc1ccccc1COC(=O)/C(C#N)=C/c1ccc(O)c(O)c1 ; value: 8.5 µM
COC(=O)[C@H](C)NP(=O)(OCC1C/C1=C/n1cnc2c(=O)[nH]c(N)nc21)Oc1ccccc1 ; value: >50 µM
O=C(O)c1ccccc1SCc1cc(O)ccc1O ; value: 33.3 µM
Nc1nc2c(ncn2[C@@H]2C=C(F)[C@H](CO)O2)c(=O)[nH]1 ; value: >100 µM
Cc1cc(C)c(CS(=O)c2cccc[n+]2[O-])c(C)c1 ; value: 35 µg/mL
Cc1cc(S(=O)(=O)Nc2nnc3c(C(F)(F)F)cc(Cl)cn23)c(S)cc1Cl ; value: 139 µM
COc1ccc(/C=N/NC(=O)CN2c3c(-c4ccccc4)n[nH]c3-c3ccccc3S2(=O)=O)c(OC)c1 ; value: 17.5 µM
C=C(C)[C@@H]1CC[C@]2(C(=O)NCCCCCCC(=O)O)CC[C@]3(C)[C@H](CC[C@@H]4[C@@]5(C)CC[C@H](O)C(C)(C)[C@@H]5CC[C@]43C)[C@@H]12 ; value: >3 µM
O=C(CN1c2c(-c3ccccc3)n[nH]c2-c2ccccc2S1(=O)=O)N/N=C/c1cccc(Cl)c1 ; value: 3.7 µM
CCOCn1c(Cc2cccc3ccccc23)c(C)c(=O)[nH]c1=O ; value: 50.3 µM
N#C/C(=C\c1ccc(O)c(O)c1)C(=O)NCCCCc1ccccc1 ; value: 11.8 µM
COc1ccc(/C=N/NC(=O)Cn2nc(-c3ccccc3)c3c2-c2ccccc2S(=O)(=O)N3C)c(OC)c1OC ; value: >100 µM
NNC(=O)CN1c2c(-c3ccccc3)n[nH]c2-c2ccccc2S1(=O)=O ; value: 15.1 µM
CC(C)(C)NC(=O)c1ccccc1SSc1ccccc1C(=O)NC(C)(C)C ; value: >100 µM
N#C/C(=C\c1cc(O)c(O)c(O)c1)C(=O)NCCCNC(=O)/C(C#N)=C/c1cc(O)c(O)c(O)c1 ; value: 17.3 µM
Nc1ccn([C@@H]2C=C(F)[C@H](CO)O2)c(=O)n1 ; value: >100 µM
Nc1ncnc2c1ncn2[C@@H]1O[C@H](CO)[C@@H](F)[C@@H]1F ; value: >100 µM
CC(C)c1c(Sc2ccccc2)n(COCCO)c(=S)[nH]c1=O ; value: >100 µM
Nc1nc(Cl)c2ncn([C@@H]3O[C@H](CO)C[C@@H]3F)c2n1 ; value: >50 µM
CNC(=O)c1ccccc1SSc1ccccc1C(=O)NC ; value: 11 µM
CCc1c(Cc2cccc3ccccc23)n(COCCO)c(=O)[nH]c1=O ; value: 125 µM

A second listing of 9 rows from above:

compound,value
CCc1c(Cc2cccc3ccccc23)n(COCc2ccccc2)c(=O)[nH]c1=O,20.4 µM
O=C(O)c1ccccc1SCc1cc(O)ccc1O,33.3 µM
COC(=O)[C@H](C)NP(=O)(OCC1C/C1=C/n1cnc2c(=O)[nH]c(N)nc21)Oc1ccccc1,>50 µM
COCCCCCCCCCCCC(=O)O,80–190 µM
Cn1cccc1CN1C(=O)CSC1c1c(F)cccc1F,161 µM
Cc1cc(C)c(CS(=O)c2cccc[n+]2[O-])c(C)c1,35 µg/mL
CCOCn1c(Sc2cc(C)cc(C)c2)c(CC)c(=O)[nH]c1=S,>100 µM
O=C(c1cccc(F)c1)c1ccc2c(c1)oc(=O)n2CCN1CCOCC1,20 µg/mL
O=c1ccn([C@@H]2C=C(F)[C@H](CO)O2)c(=O)[nH]1,>100 µM